PubChem BioAssay AID624099 – ICCB-Longwood, 2012
Purpose: 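Knock-downs relieving repression by E2 of an HPV18 LCR luciferase reporter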 (primary screen). Cells: human C33A cervical carcinoma cells (HPV-negative) stably expressing BPV1 E2 and an HPV18 LCR luciferase reporter. Knock-down reagent: siRNA pool against human genes, 40 nM. Timing: 72 h. Detection: 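Per-well luciferase luminescence, z-scored on each plate against the plate mean and SD with control wells left out, then averaged across three replicate plates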. Reading the numbers: mean z-score and z-score: higher = stronger reporter signal, weaker E2 silencing. Rule for the call: 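Hit if mean z-score reaches 2 and two or more of three replicate z-scores also reach 2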.
This is one part, drawn at random, of about 21,000 reagents. Of all reagents, 497 (2.4%) got an active call. 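Higher z means weaker E2 silencing; only reporter increases were scored, and knock-downs that hurt cell survival may mask genuine repressor factors.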 Reagent sequences are not shown.

| target | mean z-score | z-score, replicate A | z-score, replicate B | z-score, replicate C | outcome |
| --- | --- | --- | --- | --- | --- |
| LOC387946 (retired record) | 0.18 | 0.16 | 0.43 | -0.04 | inactive |
| C4orf46 | 0.74 | 0.65 | 1.12 | 0.45 | inactive |
| ZNF528 | -1.63 | -1.6 | -1.75 | -1.53 | inactive |
| TVP23C | -0.8 | -0.89 | -0.87 | -0.63 | inactive |
| SFRP2 | -2.42 | -2.33 | -2.67 | -2.26 | inactive |
| CNOT1 | 0.95 | 0.76 | 1.23 | 0.85 | inactive |
| SFXN2 | -1.63 | -1.99 | -1.39 | -1.51 | inactive |
| RWDD2A | 1.06 | 1.03 | 0.92 | 1.22 | inactive |
| PRNP | 0.63 | 0.82 | 0.77 | 0.28 | inactive |
| SLC9B1 | 1.51 | 1.87 | 1.78 | 0.89 | inactive |
| TYW1 | -1.11 | -1.41 | -0.96 | -0.97 | inactive |
| PQBP1 | -0.69 | -0.72 | -0.51 | -0.83 | inactive |
| MAS1 | 0.2 | 0.3 | 0 | 0.3 | inactive |
| PDE7B | -0.45 | -0.87 | -0.86 | 0.38 | inactive |
| DEDD | 1.14 | 0.93 | 1.11 | 1.39 | inactive |
| C12orf42 | 1.57 | 1.57 | 1.55 | 1.58 | inactive |
| NKX6-2 | 0.6 | 0.52 | 0.26 | 1.01 | inactive |
| MRE11 | 0.92 | 1.37 | 0.5 | 0.9 | inactive |
| CAPG | -0.19 | -0.85 | 0.23 | 0.05 | inactive |
| GSTM2 | -1.08 | -0.87 | -1.26 | -1.12 | inactive |
| INTS13 | 0.85 | 0.53 | 1.16 | – | inactive |
| CDK12 | 0.25 | 0.63 | 0.22 | -0.1 | inactive |
| NOL11P1 | -0.52 | -0.76 | -0.23 | -0.57 | inactive |
| NVL | -0.16 | -0.1 | 0.02 | -0.41 | inactive |
| LOC139263 (retired record) | -0.3 | -0.16 | -0.32 | -0.43 | inactive |
| INTS6L | -1.94 | -2.07 | -1.87 | -1.89 | inactive |
| AKNAD1 | 1.94 | 1.31 | 2.15 | 2.37 | inactive |
| HCP5 | 0.32 | 0.53 | 0.08 | 0.34 | inactive |
| GPX2 | 0.16 | 0 | 0.17 | 0.31 | inactive |
| CFAP44 | 0.81 | 0.84 | 0.71 | 0.87 | inactive |
| DCHS1 | -0.19 | -0.56 | 0.06 | -0.06 | inactive |
| DCUN1D4 | 0.08 | -0.05 | 0.14 | 0.13 | inactive |
| CACNA1B | 0.06 | -0.08 | 0.17 | 0.1 | inactive |
| SON | -1.76 | -1.85 | -1.77 | -1.67 | inactive |
| LOC219690 (retired record) | 1.53 | 1.29 | 1.93 | 1.36 | inactive |
| ATL2 | 1.62 | 1.44 | 1.92 | 1.5 | inactive |
| CEP126 | 0.71 | 1.06 | 0.43 | 0.64 | inactive |
| KDM5A | -1.16 | -1.09 | -1.27 | -1.14 | inactive |
| TUBD1 | -0.96 | -1.02 | -0.97 | -0.9 | inactive |
| MBOAT7 | 0.63 | -0.08 | 0.85 | 1.13 | inactive |
| PWP1 | 0.81 | 1.19 | 0.91 | 0.34 | inactive |
| RFX1 | 0.09 | 0.07 | 0.24 | -0.05 | inactive |
| CAPS | -0.41 | -0.8 | -0.23 | -0.22 | inactive |
| GPBP1L1 | -0.65 | -0.23 | -0.66 | -1.07 | inactive |
| EEF2K | -0.02 | 0.03 | -0.2 | 0.11 | inactive |
| LOC389413 (retired record) | -0.45 | -0.28 | -0.57 | -0.51 | inactive |
| FZD3 | 0.81 | 0.78 | 0.83 | 0.83 | inactive |
| SLC17A8 | -0.2 | -0.36 | 0.02 | -0.25 | inactive |
| GCC2-AS1 | -0.21 | -0.06 | -0.42 | -0.15 | inactive |
| PLA1A | 2.6 | 3.11 | 2.28 | 2.4 | active |
| SPATA45 | 2.17 | 1.54 | 2.52 | 2.46 | active |
| ELL | 1.38 | 1.28 | 1.39 | 1.47 | inactive |
| SF1 | -1.23 | -1.18 | -1.15 | -1.36 | inactive |
| DUX5 | 0.67 | 0.6 | 0.74 | 0.69 | inactive |
| IRS2 | -0.8 | -0.8 | -0.8 | -0.81 | inactive |
| LOC387981 (retired record) | 0.83 | 0.61 | 0.95 | 0.93 | inactive |
| NECTIN1 | -0.91 | -1.08 | -0.69 | -0.94 | inactive |

Targets above whose gene name starts with E or e:
| target | mean z-score | z-score, replicate A | z-score, replicate B | z-score, replicate C | outcome |
| --- | --- | --- | --- | --- | --- |
| EEF2K | -0.02 | 0.03 | -0.2 | 0.11 | inactive |
| ELL | 1.38 | 1.28 | 1.39 | 1.47 | inactive |
